Measured values from several laboratories, pooled; numbers as filed in NIAID ChemDB.

All rows: growth or infection tests; organism: Herpes simplex virus 1; method: plaque count; endpoint: EC50

Blank or dashed fields: not listed here. ECn is the concentration giving n% inhibition of infection, replication or growth. Lines come from different laboratories, so protocols vary.

| compound | strain or isolate | cell line | value |
|---|---|---|---|
| CC(C)=CCc1ccc(O)c(=O)cc1C(C)C | Clinical isolate | VERO | 0.24 µM |
| Cn1cc(C(=O)NCc2ccc(Cl)cc2)c(=O)c2cc(CN3CCOCC3)ccc21 | 11893 (ACV-resistant) | HFF | 5.9 µM |
| Nc1ccn(COC(CO)CO)c(=O)n1 | ICI | VERO | 140 µM |
| Nc1nc2c(ncn2CCC(O)CO)c(=O)[nH]1 | C42 ACV-R | VERO | >200 µM |
| Cn1cc(NC(=O)c2cc(NC(=O)c3cc([N+](=O)[O-])cn3C)cn2C)cc1C(=O)NCC(=N)N |  | BSC-1 | <50 µg/mL |
| O=C(OC1C2c3c(O)cc(O)cc3C[C@@H]1c1cc(O)c(O)c(O)c1Oc1cc(cc(O)c1O)C(=O)O[C@@H]1Cc3c(O)cc(O)c2c3O[C@@H]1c1cc(O)c(O)c(O)c1)c1cc(O)c(O)c(O)c1 | KOS | VERO | 11.4 µM |
| C=C(C)[C@@H]1CCc2c(O)c(O)c(=O)cc(C)c2C1 | Clinical isolate | HFF | 0.24 µM |
| Nc1ncnc2c1ncn2COC1COP(=O)(O)OC1 | F | VERO | 60 µM |
| Cn1cc(CCCCOc2ccc(C(=O)O)cc2)cc1C=O |  | VERO | >380 µM |
| CC(CC(=N)N)NC(=O)c1cc(NC(=O)c2cc(NC(=O)c3cc(NC=O)cn3C)cn2C)cn1C |  | BSC-1 | >200 µg/mL |
| Nc1nc2c(ncn2CCC(CO)CO)c(=O)[nH]1 | C1 (101) (TK-) | VERO | 87 µg/mL |
| COC(=O)[C@H](C)NP(=O)(OCC1C/C1=C/n1cnc2c(=O)[nH]c(N)nc21)Oc1ccccc1 |  | VERO | >100 µM |
| O=c1[nH]c(=O)n([C@@H]2O[C@H](CO)[C@@H](O)[C@@H]2O)cc1/C=C/Cl | VR-3 | CCRF-HSB-2 | 0.085 µM |
| Cn1cc(NC=O)cc1C(=O)Nc1cc(C(=O)Nc2cc(C(=O)Nc3ccccc3C(=N)N)n(C)c2)n(C)c1 |  | BSC-1 | <200 µg/mL |
| COC(=O)[C@H](C)NP(=O)(OC[C@H]1C/C1=C/n1cnc2c(OC)nc(N)nc21)Oc1ccccc1 |  | VERO | 0.6 µM |
| COc1cc2oc(-c3ccccc3)cc(=O)c2c(OC)c1OC | HF | VERO | 3.2 µg/mL |
| CCOc1ccc(-c2c3cc(O)c(=O)cc-3oc3cc(O)c(O)cc23)cc1 | Clinical isolate | VERO | 4.2 µM |
| N=c1ncn(Cc2ccccc2)c2nc[nH]c12 |  | BSC-1 | >50 µg/mL |
| Nc1nc2c(ncn2[C@@H]2C[C@H](CO)[C@H]2O)c(=O)[nH]1 |  |  | 0.8 µM |
| Nc1ncc2ncn(COC(CO)CO)c2n1 | F | VERO | >100 µM |
| Cn1cc(NC(=O)c2cc(NC(=O)c3cc([N+](=O)[O-])cn3C)cn2C)cc1C(=O)NCCC(=N)N |  | BSC-1 | <200 µg/mL |
| Fc1ccc(N2CCCCC2)c(NC(=S)c2ccncc2)c1 | F | VERO | 0.69 µM |
| CC(=O)OC[C@H]1O[C@H](O[C@H]2O[C@@H](COC(=O)/C=C/c3ccccc3)[C@H](O)C2(COC(C)=O)OC(=O)/C=C/c2ccccc2)[C@H](OC(C)=O)[C@@H](O)[C@@H]1OC(C)=O | 7401H | VERO | >100 µg/mL |
| [N-]=[N+]=NC[C@H]1O[C@@H](n2cc(Br)c(=O)[nH]c2=O)C[C@@H]1O |  | VERO | >100 µM |
| CC(C)Nc1nc(N)nc2c1ncn2/C=C1/C[C@@H]1CO |  | VERO | 38 µM |
| Cc1cn([C@H]2C[C@H](O)[C@@H](CN)O2)c(=O)[nH]c1=O |  | VERO | <100 µM |
| CCCCn1cnc(=N)c2[nH]cnc21 |  | BSC-1 | >50 µg/mL |
| Cn1cc(C(=O)NCc2ccc(Cl)cc2)c(=O)c2cc(CN3CCOCC3)ccc21 | KOS | VERO | 3.3 µM |
| O=c1cc(-c2ccc(-c3ccccc3)cc2)oc2ccccc12 | KOS | VERO | 510 µg/mL |
| Nc1nc2c(ncn2COCCO)c(=O)o1 |  | VERO | 100 µM |
| Cc1ccccc1Cn1cnc(=N)c2[nH]cnc21 |  | BSC-1 | >50 µg/mL |
| CCCC(=O)N[C@@H](CCC(=O)N[C@@H](CS)C(=O)NCC(=O)O)C(=O)O | McIntyre | Macrophages | 2400 µM |
| Nc1nc(N)c2ncn(COCCO)c2n1 | ICI | VERO | 10.5 µM |
| [N-]=[N+]=NC[C@H]1O[C@@H](n2cc(I)c(=O)[nH]c2=O)C[C@@H]1O |  | VERO | >100 µM |
| O=c1[nH]c(=O)n([C@H]2C[C@H](O)[C@@H](CO)O2)cc1/C=C/Br | KOS | VERO | 2.1 µM |
| Nc1ncnc2c1ncn2[C@@H]1O[C@H](CO)[C@@H](O)[C@@H]1O | ICI | VERO | 16 µM |
| N#Cc1c(C2CCCCC2)nc(SCc2cccc([N+](=O)[O-])c2)[nH]c1=O | McIntyre | VERO | >20 µM |
| O=C(O)CP(=O)(O)O | ICI | VERO | 57.5 µM |
| NC(=S)c1cn(COC(CO)CO)c2ncnc(N)c12 |  | HFF | 16 µM |
| CC(=O)OCC(CO)OCn1cnc2c(=O)[nH]c(N)nc21 |  | HFF | 1.5 µg/mL |
| O=c1[nH]c(=O)n([C@H]2C[C@H](O)[C@@H](CO)O2)cc1I | HF | HeLa | 3.66 µg/mL |
| O=C(Nc1cc(F)ccc1N1CCc2ccccc21)c1ccncc1 | F | VERO | >20 µM |
| O=C(NCc1ccc(Cl)cc1)c1cn2c3c(cc(CN4CCOCC4)cc3c1=O)OC(c1cccnc1)C2 | DM2.1 (ACV-resistant) | HFF | 2.2 µM |
| COc1nc(N)nc2c1ncn2CCC(CO)CO | HFEM | VERO | 250 µM |
| Nc1nc2c(ncn2CCCC(CO)CO)c(=O)[nH]1 | C42 | HEL | 0.3 µM |
| Nc1ccn([C@@H]2O[C@H](CO)[C@@H](O)[C@@H]2O)c(=O)n1 | ICI | VERO | 0.2 µM |
| Cn1cc(NC(=O)c2cc(NC(=O)c3cc(NC=O)cn3C)cn2C)cc1C(=O)NCC(=N)N |  | BSC-1 | <200 µg/mL |
| O=C(O)CP(=O)(O)O | Wilson | MEF | 4.1 µg/mL |
| Cn1cc(NC(=O)c2cc([N+](=O)[O-])cn2C)cc1C(=O)Nc1cc(C(=O)Nc2ccccc2C(=N)N)n(C)c1 |  | BSC-1 | <200 µg/mL |
| Nc1nc2c(ncn2[C@@H]2O[C@H](CO)[C@@H](O)[C@H]2O)c(=O)o1 |  | VERO | 0.24 µM |
| Clc1ncnc2nc(-c3cscn3)[nH]c12 |  | VERO | >100 µg/mL |
| COC(=O)[C@H](C)NP(=O)(OC[C@H]1C/C1=C/n1cnc2c(N)nc(N)nc21)Oc1ccccc1 |  | VERO | 30 µM |
| CN1CC[C@H](c2c(O)cc(O)c3c(=O)cc(-c4ccccc4Cl)oc23)[C@H](O)C1 | F | VERO | 0.034 µM |
| O=c1[nH]c(=O)n([C@@H]2O[C@H](CO)[C@@H](O)[C@@H]2F)cc1/C=C/Br | VR-3 | CCRF-HSB-2 | 0.14 µM |
| Cn1cc(NC(=O)c2cc(NC(=O)c3cc(NC=O)cn3C)cn2C)cc1C(=O)NCCC(=N)N |  | BSC-1 | <25 µg/mL |
| CCCC(=O)OCC(CO)OCn1cnc2c(=O)[nH]c(N)nc21 |  | HFF | 0.5 µg/mL |
| O=c1[nH]c(=O)n([C@@H]2O[C@H](CO)[C@@H](O)[C@@H]2O)cc1/C=C/Br | VR-3 | CCRF-HSB-2 | 0.072 µM |

The first 4 rows once more:

compound | strain or isolate | cell line | value
CC(C)=CCc1ccc(O)c(=O)cc1C(C)C | Clinical isolate | VERO | 0.24 µM
Cn1cc(C(=O)NCc2ccc(Cl)cc2)c(=O)c2cc(CN3CCOCC3)ccc21 | 11893 (ACV-resistant) | HFF | 5.9 µM
Nc1ccn(COC(CO)CO)c(=O)n1 | ICI | VERO | 140 µM
Nc1nc2c(ncn2CCC(O)CO)c(=O)[nH]1 | C42 ACV-R | VERO | >200 µM